Our source for the IC50 values is patent US20250090572A1 (priority 2020, published 2025).

For the experiment, the target named is wild-type SARS-CoV-2 spike glycoprotein (SGP) receptor-binding domain (RBD) (Severe acute respiratory syndrome coronavirus 2, UniProt P0DTC2). On the set-up: unit not given beside the values.

As to pentosan polysulfate [PPS], the IC50 worked out at 74.
